From PMC9642902

Key:
Test in all cases: ITC
[1] = molecular target: Mirabilis jalapa ATG8-I (Mirabilis jalapa)
[2] = molecular target: Mirabilis jalapa ATG8-III (Mirabilis jalapa)
[3] = molecular target: Mirabilis jalapa ATG8-I (Mirabilis jalapa); remark: listed apart in the source
potato ATG8-2.2 (potato) = molecular target: potato ATG8-2.2 (potato)

PiPexRD54 AIM peptide
Kd [1]: 254 nM and 233 nM
Kd [2]: 0.176 µM and 0.0663 µM and 0.245 µM
stoichiometry N [2]: 1.45 and 1.35 and 1.51
Kd [3]: 234 nM and 255 nM and 241 nM
stoichiometry N [3]: 1.06 and 1.44 and 1.27

PmPexRD54 AIM peptide
Kd [2]: 20.4 µM and 11.7 µM and 78.4 µM
stoichiometry N [2]: 1.23 and 1
Kd (potato ATG8-2.2 (potato)): 4.49 µM and 3.04 µM and 4.79 µM
stoichiometry N (potato ATG8-2.2 (potato)): 1.23 and 1.35 and 1.27
Kd [3]: 15600 nM and 5440 nM
stoichiometry N [3]: 1.32 and 1

Values joined by “and” are separate entries in the source; they are usually repeats but may differ in a detail not shown here. Equal values may be shown once. Read-outs that look alike come from different tables or passages of the source.
